# Measurements published in ChEMBL document CHEMBL6078645, “Expanding the Solvent/Protein Region Occupation of the Non-Nucleoside Reverse Transcriptase Inhibitor Binding Pocket for Improved Broad-Spectrum Anti-HIV-1 Efficacy: from Rigid Phenyl-Diarylpyrimidines to Flexible Hydrophilic Piperidine-Diarylpyrimidines” (J Med Chem, 2024).
# Test: Selectivity index, ratio of CC50 for cytotoxicity against human MT4 cells assessed as reduction in cell viability to EC50 for antiviral activity against wild type HIV-1 IIIB infected in human MT4 cells assessed as protection against virus-induced cytopathic effect
# Type: toxicity, cell-based
# Settings: read-out: Ratio CC50/EC50
smiles,measurement,value
Cc1cc(C#N)cc(C)c1Oc1nc(Nc2ccc(C#N)cc2)nc(N)c1Br [ETRAVIRINE],selectivity ratio,> 1500
